Pooled drug test results. Numbers come from NIAID ChemDB, via PubChem.

All rows: cytotoxicity tests; cell line: C8166; read by: MTT; measure: CC50

CCn: concentration that lowers growth or viability of the cells by n%. Lines come from different laboratories, so protocols vary.

smiles,result
NC(=O)c1[nH]c2ccc(Cl)cc2c1S(=O)(=O)c1ccccc1,>20 µM
O=C(CC1(O)C(=O)Nc2ccc(Br)cc21)c1cccc(Br)c1,145 µM
Cc1ccccc1NC(=S)Nn1c(-c2ccc(Cl)cc2)c[nH]c1=S,59.23 µM
CC(=O)N(/C=C/c1ccccc1Br)Cc1ccccc1,51 µM
OCCc1ccc(O)c(O)c1,169.5 µg/mL
O=C(CC1(O)C(=O)Nc2ccc(Cl)cc21)c1ccccc1Cl,>400 µM
CC(=O)[C@]12CCC(C)(C)C=C1C1=CCC3[C@@]4(C)CCC(=O)C(C)(C)C4[C@H](O)C[C@@]3(C)[C@]1(C)CC2,72.8 µM
Cc1cc(S(N)(=O)=O)ccc1NC(=O)COc1ccccc1NS(=O)(=O)c1ccccc1,209 µM
COc1cc(/C=C/C(=O)O[C@H]2[C@H](O)[C@@H](OC3OCC(O)(CO)C3O)[C@H](OCCc3ccc(O)cc3)O[C@@H]2CO)ccc1O,>200 µg/mL
COc1ccc(S(=O)(=O)Nc2ccccc2OCC(=O)Nc2ccc(S(N)(=O)=O)cc2C)cc1,172.4 µM
CCCCN1C[C@H](O)[C@@H](O)[C@H](O)[C@H]1CO,>500 µg/mL
O=C(O)c1cc(O)c(O)c(O)c1,29.63 µM
O=C(CC1(O)C(=O)Nc2ccc(Cl)cc21)c1ccc(F)cc1,124.4 µM
COc1cc([C@H](O)[C@H](CO)Oc2c(O)cc(C(=O)CCO)cc2O)ccc1O,247.2 µg/mL
O=C(CC1(O)C(=O)Nc2ccc(Cl)cc21)c1cccc(Cl)c1,>400 µM
NS(=O)(=O)c1ccc(NC(=O)COc2ccc(Cl)cc2NS(=O)(=O)c2ccc(Cl)cc2)cc1,127 µM
CCOP(=O)(N[C@@H](C)C(=O)OC)OC[C@H]1O[C@@H](n2cc(C)c(=O)[nH]c2=O)C[C@@H]1N=[N+]=[N-],>500 µg/mL
NS(=O)(=O)c1ccc(NC(=O)COc2ccccc2NS(=O)(=O)c2ccc(Cl)cc2)cc1,201 µM
C=C(C)[C@H](O)COc1cc(OC)c2c(c1)C(=O)c1cc(O)cc(O)c1-2,>200 µg/mL
COc1ccc(-c2c[nH]c(=S)n2NC(=S)Nc2ccc(C)cc2C)cc1,42.03 µM
COc1cc(OC)cc(OC2O[C@H](CO)[C@@H](O)[C@H](O)[C@H]2O)c1,>200 µM
Cc1ccc(S(=O)(=O)Nc2ccccc2OCC(=O)Nc2ccc(S(N)(=O)=O)cc2)cc1,193 µM
O=C(CC1(O)C(=O)Nc2ccc(Cl)cc21)c1ccccc1,>400 µM
CC(=O)N(/C=C/c1ccccc1Br)Cc1cc(F)cc(F)c1,116 µM
COc1ccc(-c2c[nH]c(=S)n2NC(=S)Nc2ccc(Br)cc2)cc1,25.14 µM
CC(=O)N(/C=C/c1ccccc1Br)Cc1c(F)cccc1F,172 µM
NS(=O)(=O)c1ccc(NC(=O)COc2ccccc2NS(=O)(=O)c2ccc([N+](=O)[O-])cc2)cc1,209 µM
COc1cc(CCOC(=O)CCC(=O)CO)cc(O)c1OC,20.4 µg/mL
CC(=O)N(/C=C/c1ccccc1Br)C(C)=O,85 µM
C[C@@H]1O[C@@H](O[C@@H]2[C@@H](O)[C@H](OCCc3ccc(O)c(O)c3)O[C@H](COC(=O)/C=C/c3ccc(O)c(O)c3)[C@H]2O)[C@H](O)[C@H](O)[C@H]1O,72.7 µg/mL
CC(C)(C)OC(=O)[C@@H]1CCCN1C[C@@H](O)[C@H](Cc1ccccc1)NC(=O)[C@H](CC(N)=O)NC(=O)OCc1ccccc1,>200 µg/mL
Cc1ccccc1NC(=S)Nn1c(-c2ccc(Br)cc2)c[nH]c1=S,27.14 µM
O=C(CC1(O)C(=O)Nc2ccc(Br)cc21)c1ccccc1,157.2 µM
CCOP(=O)(N[C@@H](CC(C)C)C(=O)OC)OC[C@H]1O[C@@H](n2cc(C)c(=O)[nH]c2=O)C[C@@H]1N=[N+]=[N-],>500 µg/mL
CCN(/C=C/c1ccccc1Cl)C(C)=O,424 µM
O[C@H]1[C@H](O)[C@@H](O)CN2CC[C@H](O)[C@H]12,>500 µg/mL
COc1cc([C@@H]2c3cc(O)c(OC)cc3C[C@@H](CO)[C@@H]2CO)ccc1O,>200 µM
C=CCN(/C=C/c1ccccc1Br)C(C)=O,337 µM
O=C(CC1(O)C(=O)Nc2ccccc21)c1ccccc1Cl,>400 µM
NS(=O)(=O)c1ccc(NC(=O)COc2ccccc2NS(=O)(=O)c2ccccc2)cc1,217 µM